HIV-1 5' UTR: effect of mutations on RNA dimer formation

Sequence of the HIV-1 NL4-3 5' RNA, positions 1 to 437, as numbered in the source:
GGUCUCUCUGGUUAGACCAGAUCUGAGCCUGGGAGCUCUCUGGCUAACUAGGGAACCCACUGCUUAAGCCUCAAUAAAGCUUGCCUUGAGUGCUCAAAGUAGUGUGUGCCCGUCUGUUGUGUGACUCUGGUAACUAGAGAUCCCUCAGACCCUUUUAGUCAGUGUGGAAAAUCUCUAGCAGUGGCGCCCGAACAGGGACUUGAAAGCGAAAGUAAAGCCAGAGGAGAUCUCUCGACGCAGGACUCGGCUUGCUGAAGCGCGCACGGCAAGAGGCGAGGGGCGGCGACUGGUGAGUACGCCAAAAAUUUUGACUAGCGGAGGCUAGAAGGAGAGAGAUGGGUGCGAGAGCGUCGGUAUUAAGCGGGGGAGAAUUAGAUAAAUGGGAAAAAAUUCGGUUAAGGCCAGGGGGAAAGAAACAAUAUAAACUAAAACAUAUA

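Mutant RNA libraries with 1G, 2G or 3G starts, with or without cap, were folded at 37 °C for 30 min. High salt was 300 mM KCl and 5 mM MgCl2, low salt 40 mM KCl and 0.1 mM MgCl2; monomer and dimer were parted on a native gel. Kdimer compares mutation frequencies in monomer and dimer, corrected for sequencing errors.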

Values are log2 Kdimer, the median over the changes at each position: higher means that changes there hinder dimer formation, below 0 that they favour it. One numbering serves 1G, 2G and 3G. A position is written with its base.

| position | domain | 3G capped high-salt | 3G capped low-salt | 3G uncapped high-salt | 3G uncapped low-salt |
|---|---|---|---|---|---|
| G361 | none | 0.15 | 0.41 | 0.09 | 0.30 |
| C362 | none | 0.15 | 0.39 | 0.21 | 0.43 |
| G363 | none | 0.24 | 0.28 | 0.14 | 0.34 |
| G364 | none | -0.04 | 0.11 | -0.06 | 0.22 |
| G365 | none | 0.09 | 0.36 | 0.16 | 0.37 |
| G366 | none | 0.01 | 0.23 | 0.12 | 0.21 |
| G367 | none | 0.20 | -0.07 | 0.24 | 0.25 |
| A368 | none | 0.15 | 0.15 | 0.28 | 0.01 |
| G369 | none | 0.32 | 0.08 | 0.12 | 0.16 |
| A370 | none | 0.06 | 0.05 | 0.03 | 0.06 |
| A371 | none | -0.04 | -0.20 | 0.05 | -0.53 |
| U372 | none | -0.09 | -0.08 | -0.09 | -0.13 |
| U373 | none | 0.03 | -0.02 | -0.11 | 0.03 |
| A374 | none | 0.00 | 0.10 | 0.14 | 0.11 |
| G375 | none | 0.13 | 0.01 | 0.01 | -0.17 |
| A376 | none | 0.02 | -0.14 | 0.01 | -0.17 |
| U377 | none | -0.08 | 0.11 | 0.04 | 0.00 |
| A378 | none | 0.08 | 0.09 | -0.01 | 0.08 |
| A379 | none | -0.10 | 0.02 | 0.06 | -0.02 |
| A380 | none | -0.02 | 0.06 | 0.04 | 0.02 |
| U381 | none | -0.04 | 0.02 | -0.04 | 0.01 |
| G382 | none | -0.04 | 0.17 | 0.10 | 0.15 |
| G383 | none | 0.08 | 0.22 | 0.23 | 0.15 |
| G384 | none | -0.38 | -0.06 | -0.15 | 0.06 |
| A385 | none | -0.03 | -0.06 | -0.05 | -0.06 |
| A386 | none | 0.07 | -0.03 | -0.04 | -0.05 |
| A387 | none | 0.06 | 0.06 | 0.05 | -0.02 |
| A388 | none | 0.03 | 0.08 | 0.09 | 0.02 |
| A389 | none | -0.01 | 0.01 | -0.02 | -0.03 |
| A390 | none | 0.02 | 0.09 | 0.06 | -0.16 |
| U391 | none | 0.03 | 0.23 | 0.12 | 0.07 |

2 of these entries, quoted again:

position	domain	3G capped high-salt	3G capped low-salt	3G uncapped high-salt	3G uncapped low-salt
C362	none	0.15	0.39	0.21	0.43
U381	none	-0.04	0.02	-0.04	0.01

Values reported by Ye et al. 2022 (doi:10.1038/s41594-022-00746-2).